Anti-infective test results gathered from many reports (values: NIAID ChemDB through PubChem).

Shared fields: tests in culture; organism: Mycobacterium avium; measure: MIC

Conditions beyond the fields shown may differ between rows. An empty or dashed field is not shown.

CCCCCCCCCCCC[N+]1(CCOC(=O)Nc2ccccc2OCCCCCC)CCCCC1 ; strain or isolate: MY330/88 ; result: 8 µM
O=C(Nc1ccccc1N1CCSCC1)c1ccc(Cl)cc1 ; strain or isolate: 103317 ; result: >16 µg/mL
Cc1ccc2[nH]c(=S)[nH]c2c1 ; strain or isolate: MY330/88 ; result: 500 µM
CCCCOc1ccccc1NC(=O)OCCN1CCCCC1 ; strain or isolate: MY330/88 ; result: 62.5 µM
Cc1ccc2nc(SCc3ccc(C#N)cc3)[nH]c2c1 ; strain or isolate: MY330/88 ; result: 32 µM
C[C@H]1COc2c(N3CCN(C)CC3)c(F)cc3c(=O)c(C(=O)O)cn1c23 ; strain or isolate: 36-1 ; result: 1 µg/mL
CC(C)N=c1cc2n(-c3ccc(Cl)cc3)c3ccccc3nc-2cc1Nc1ccc(Cl)cc1 ; strain or isolate: 8775 ; result: 5 µg/mL
Cc1ccc2nc(SCc3c(F)cccc3[N+](=O)[O-])[nH]c2c1 ; strain or isolate: MY330/88 ; result: >125 µM
O=C(NCc1ccc(Br)cc1)c1ncccc1S ; strain or isolate: CNCTC MY330/88 ; result: 8 µM
Cc1ccc2nc(SCc3ccccc3Cl)[nH]c2c1 ; strain or isolate: MY330/88 ; result: 62 µM
O=C(Nc1ccc(C(F)(F)F)cc1)c1ncccc1O ; strain or isolate: CNCTC MY330/88 ; result: 62.5 µM
CCCCCC[N+]1(CCOC(=O)Nc2ccccc2OCCCCC)CCCCC1 ; strain or isolate: MY330/88 ; result: 62.5 µM
CC[C@H]1OC(=O)[C@H](C)C(=O)[C@H](C)[C@@H](O[C@@H]2O[C@H](C)C[C@H](N(C)C)[C@H]2O)[C@](C)(OC)C[C@@H](C)C(=O)[C@H](C)[C@H]2N(CCCCn3cnc(-c4cccnc4)c3)C(=O)O[C@]12C ; strain or isolate: Isolate 969 ; result: 10 µg/mL
CCCCCOc1ccc(NC(=O)OCCN2CCCCC2)cc1 ; strain or isolate: MY330/88 ; result: 62.5 µM
CCCCCOc1cccc(NC(=O)OCCN(C)C)c1 ; strain or isolate: MY330/88 ; result: 62.5 µM
CCCCC(CC)CNC[C@H]1O[C@H](O[C@H]2O[C@H](CNCC(CC)CCCC)[C@@H](O)[C@H](O)[C@H]2O)[C@H](O)[C@@H](O)[C@@H]1O ; strain or isolate: NJ211 ; result: 16 µg/mL
O=[N+]([O-])c1cc(Sc2nc3c(Cl)cc(Cl)cc3[nH]2)cc([N+](=O)[O-])c1 ; strain or isolate: MY330/88 ; result: 62.5 µM
CCCCCCCOc1cccc(NC(=O)OCCN2CCOCC2)c1 ; strain or isolate: MY330/88 ; result: 32 µM
CCCCCOc1ccccc1NC(=O)OCCN1CCCCC1 ; strain or isolate: MY330/88 ; result: 125 µM
FC(F)(F)c1nc2c(Br)cc(Br)cc2[nH]1 ; strain or isolate: MY330/88 ; result: 62.5 µM
O=C(Nc1ccc(C(F)(F)F)cc1)c1cc(Cl)ccc1OS(=O)(=O)c1ccccc1 ; strain or isolate: 330/88 ; conditions: 21 d ; result: 125 µM
O=[N+]([O-])c1cc(CSc2ncn[nH]2)cc([N+](=O)[O-])c1 ; strain or isolate: MY330/88 ; result: 1000 µM
CCCCC(CC)CNC[C@H]1O[C@H](O[C@H]2O[C@H](CO)[C@@H](O)[C@H](O)[C@H]2O)[C@H](O)[C@@H](O)[C@@H]1O ; strain or isolate: NJ211 ; result: >128 µg/mL
CCCCOc1ccccc1NC(=O)OC(C)CN1CCCCC1 ; strain or isolate: MY330/88 ; result: 250 µM
O=C(Nc1cccc(N2CCSCC2)c1)c1ccc(-c2ccccc2)cc1 ; strain or isolate: 103317 ; result: >16 µg/mL
CCCCCCCCCCCCCCCCS(=O)(=O)NC[C@H]1O[C@H](O[C@H]2O[C@H](CNS(=O)(=O)CCCCCCCCCCCCCCCC)[C@@H](O)[C@H](O)[C@H]2O)[C@H](O)[C@@H](O)[C@@H]1O ; strain or isolate: NJ211 ; result: >32 µg/mL
CCCCOc1ccccc1NC(=O)OCC[NH+]1CCCC1 ; strain or isolate: MY330/88 ; result: 125 µM
CCCCOc1cccc(NC(=O)OC(COCC)CN2CCCCC2)c1 ; strain or isolate: MY330/88 ; result: 125 µM
FC(F)(F)c1nc2cc(Cl)c(Cl)cc2[nH]1 ; strain or isolate: MY330/88 ; result: 62.5 µM
CCCCCCOc1ccccc1NC(=O)OCC[N+]1(C)CCCCC1 ; strain or isolate: MY330/88 ; result: 250 µM
O=C(Nc1cccc(Cl)c1)c1ncccc1O ; strain or isolate: CNCTC MY330/88 ; result: 62.5 µM
c1ccc(-c2ccc(CNc3cccc(N4CCOCC4)c3)cc2)cc1 ; strain or isolate: 103317 ; result: >16 µg/mL
Fc1ccccc1CSc1ncn[nH]1 ; strain or isolate: MY330/88 ; result: 250 µM
FC(F)(F)C(F)(F)c1nc2c(Br)cc(Br)cc2[nH]1 ; strain or isolate: MY330/88 ; result: 32 µM
CCCCCCCCCCCCCCCCCCN(C)C[C@H]1O[C@H](O[C@H]2O[C@H](CN(C)CCCCCCCCCCCCCCCCCC)[C@@H](O)[C@H](O)[C@H]2O)[C@H](O)[C@@H](O)[C@@H]1O ; strain or isolate: NJ168 ; result: >128 µg/mL
Clc1ccc(CSc2ncn[nH]2)cc1Cl ; strain or isolate: MY330/88 ; result: 1000 µM
CCCCCCCC[N+]1(CCOC(=O)Nc2ccccc2OCCCCC)CCCCC1 ; strain or isolate: MY330/88 ; result: 16 µM
Cc1ccc2nc(SCc3cccc(Br)c3)[nH]c2c1 ; strain or isolate: MY330/88 ; result: 32 µM
O=C(NCc1cccc(Cl)c1)c1ncccc1S ; strain or isolate: CNCTC MY330/88 ; result: 16 µM
CCCCCCOc1cccc(NC(=O)OC(C)CN2CCCCC2)c1 ; strain or isolate: MY330/88 ; result: 16 µM
O=C(NCc1ccc(Br)cc1)c1ncccc1O ; strain or isolate: CNCTC MY330/88 ; result: 62.5 µM
CCc1cc(C(N)=S)ccn1 ; strain or isolate: 168-4 ; result: 2.5 µg/mL
O=C(NCc1ccc([N+](=O)[O-])cc1)c1ncccc1S ; strain or isolate: CNCTC MY330/88 ; result: 16 µM
CCCCCCCCCCCCNC[C@H]1O[C@H](O[C@H]2O[C@H](CNCCCCCCCCCCCC)[C@@H](O)[C@H](O)[C@H]2O)[C@H](O)[C@@H](O)[C@@H]1O ; strain or isolate: NJ168 ; result: 8 µg/mL
Clc1ccc(CNc2ccc(N3CCOCC3)cc2)cc1 ; strain or isolate: 103317 ; result: >16 µg/mL
O=C(Nc1ccc(Cl)c(Cl)c1)c1ccc(Cl)cc1OS(=O)(=O)c1ccccc1 ; strain or isolate: 330/88 ; conditions: 14 d ; result: 62.5 µM
CCCCC(CC)CN(CC(CC)CCCC)C[C@H]1O[C@H](O[C@H]2O[C@H](CN(CC(CC)CCCC)CC(CC)CCCC)[C@@H](O)[C@H](O)[C@H]2O)[C@H](O)[C@@H](O)[C@@H]1O ; strain or isolate: NJ211 ; result: 8 µg/mL
Cc1ccc2nc(SCc3ccc([N+](=O)[O-])cc3)[nH]c2c1 ; strain or isolate: MY330/88 ; result: 8 µM
CCCCCCCOc1ccccc1NC(=O)OC(COCC)CN1CCCCC1 ; strain or isolate: MY330/88 ; result: 125 µM
O=C(NCc1ccc(Cl)cc1)c1ncccc1S ; strain or isolate: CNCTC MY330/88 ; result: 16 µM
Fc1ccc(CSc2ncn[nH]2)cc1 ; strain or isolate: MY330/88 ; result: 250 µM
Clc1ccc(CNc2ccc(N3CCSCC3)cc2)cc1 ; strain or isolate: 103317 ; result: 8 µg/mL
CCCCCCCCS(=O)(=O)NC[C@H]1O[C@H](O[C@H]2O[C@H](CNS(=O)(=O)CCCCCCCC)[C@@H](O)[C@H](O)[C@H]2O)[C@H](O)[C@@H](O)[C@@H]1O ; strain or isolate: NJ211 ; result: 64 µg/mL
CN1CCN(c2ccc(NCc3ccc(-c4ccccc4)cc3)cc2)CC1 ; strain or isolate: 103317 ; result: 8 µg/mL
O=C(Nc1cccc(Cl)c1)c1ccc(Cl)cc1OS(=O)(=O)c1ccccc1 ; strain or isolate: 330/88 ; conditions: 14 d ; result: 500 µM
O=C(NCc1ccc(Cl)c(Cl)c1)c1ncccc1O ; strain or isolate: CNCTC MY330/88 ; result: 32 µM
CCCCCOc1ccccc1NC(=O)OCC[N+]1(Cc2ccccc2)CCCCC1 ; strain or isolate: MY330/88 ; result: 250 µM
O=C(Nc1cccc(F)c1)c1ccc(Cl)cc1OS(=O)(=O)c1ccccc1 ; strain or isolate: 330/88 ; conditions: 21 d ; result: 500 µM

The first 8 rows once more:

| structure | strain or isolate | conditions | result |
|---|---|---|---|
| CCCCCCCCCCCC[N+]1(CCOC(=O)Nc2ccccc2OCCCCCC)CCCCC1 | MY330/88 |  | 8 µM |
| O=C(Nc1ccccc1N1CCSCC1)c1ccc(Cl)cc1 | 103317 |  | >16 µg/mL |
| Cc1ccc2[nH]c(=S)[nH]c2c1 | MY330/88 |  | 500 µM |
| CCCCOc1ccccc1NC(=O)OCCN1CCCCC1 | MY330/88 |  | 62.5 µM |
| Cc1ccc2nc(SCc3ccc(C#N)cc3)[nH]c2c1 | MY330/88 |  | 32 µM |
| C[C@H]1COc2c(N3CCN(C)CC3)c(F)cc3c(=O)c(C(=O)O)cn1c23 | 36-1 |  | 1 µg/mL |
| CC(C)N=c1cc2n(-c3ccc(Cl)cc3)c3ccccc3nc-2cc1Nc1ccc(Cl)cc1 | 8775 |  | 5 µg/mL |
| Cc1ccc2nc(SCc3c(F)cccc3[N+](=O)[O-])[nH]c2c1 | MY330/88 |  | >125 µM |